Source: PubChem BioAssay AID1224833 (University of Georgia, 2016)
Purpose: 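Host factors restraining rotavirus as candidate antiviral genes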 (primary screen). Cell system: monkey MA104 kidney cells. Reagents: siRNA pool against human genes, 50 nM. Time to read-out: 48 h knock-down before infection; read 24 h after infection. Conditions: infection with rotavirus strain RV3 two days after transfection; infectious dose for this stage not given. Measurement: 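z-score of rotavirus antigen signal per well, from a fluorescent immunoassay, relative to non-targeting control wells on the same plate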. Direction: z-score vs non-targeting control: higher = more rotavirus replication than with non-targeting control. Call rule: In these data the active calls have z-score vs non-targeting control at about -1 or lower, or at about 1 or higher. Meaning of the calls: active = z-score beyond 1 either way; inactive = z-score within 1 of zero.
This is a random part of about 12,000 reagents tested. Of all reagents, about 5,600 (46%) are marked active. 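Active calls cover z-scores past 1 in both directions, so they include lowered as well as raised rotavirus replication.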

gene knocked down,z-score vs non-targeting control,Outcome
KHDRBS3,-0.211,inactive
NOL4L,-0.247,inactive
TMEM145,0.615,inactive
SLC41A3,-2.65,active
GNA14,-0.123,inactive
SEM1,-2.84,active
ZNF695,0.469,inactive
ZNF391,-1.4,active
KRTCAP3,-0.815,inactive
CD6,-0.909,inactive
TTLL3,-0.0567,inactive
WDR77,0.896,inactive
AP1S3,0.506,inactive
CIB1,-0.777,inactive
STAC3,0.201,inactive
RASL10B,-0.0658,inactive
TMEM88,-0.845,inactive
COL18A1,-0.946,inactive
CCDC184,-0.484,inactive
ZNF529,0.128,inactive
MS4A7,0.242,inactive
CMC2,-0.663,inactive
OTUD6B,-1.16,active
NACA2,0.579,inactive
ZNF780B,-1.63,active
DLX1,-0.11,inactive
UBB,1.4,active
ATP10A,-2.02,active
AMIGO3,-0.0377,inactive
ZNF227,0.318,inactive
CIART,-1.36,active
PRPF39,-3.09,active
SEMG1,-0.816,inactive
MC5R,-1.07,active
DRD3,-0.806,inactive
TOP1,0.866,inactive
ETHE1,-0.19,inactive
KL,-1.45,active
UTF1,-1.61,active
KIAA0319L,-0.427,inactive
WBP2,-1.19,active
BBOF1,-1.02,active
INTS6L,1.72,active
ZNF704,0.209,inactive
LDLRAD1,1.72,active
OR6C1,-1.81,active
R3HDM1,0.235,inactive
GALC,-0.517,inactive
SLIT2,-0.781,inactive
SPRR2E,-0.129,inactive
CEP57L1,0.618,inactive
ELP3,-1.3,active
SMR3B,0.554,inactive
PYM1,-1.74,active
LIN52,-1.59,active
NRXN3,0.121,inactive
STPG4,-2.31,active
TTLL11,0.163,inactive
YPEL5,-0.0225,inactive
SCUBE3,-1.08,active
SNRPD1,-2.02,active
DNAJC30,0.187,inactive
GOLGA8B,-0.882,inactive
CCDC178,-0.814,inactive
ZNF556,-0.127,inactive
COPE,1.64,active
KLRB1,-1.2,active
PLCL2,0.953,inactive
OR8J1,-0.914,inactive
CRYGB,-1.07,active
CDC20,0.32,inactive
POLR1B,-0.502,inactive
SP110,0.116,inactive
GRM8,1.04,active
NOS1AP,0.262,inactive
STAU2,0.4,inactive
C19orf73,0.956,inactive
CCNI,-1.04,active
STPG2,0.87,inactive
HEMK1,-0.654,inactive
SNCB,-0.725,inactive
USP12,0.885,inactive
HDAC1,-1.26,active
ADAMTS10,0.687,inactive
ZNF750,0.732,inactive
NKX2-1,0.637,inactive
TXLNG,0.0643,inactive
ADA,-1.89,active
ZNF16,0.159,inactive
GPR85,1.05,active
TMEM132D,1.2,active
FAM178B,0.55,inactive
MAGEE2,-0.108,inactive
NANOS1,-0.652,inactive
CRACR2B,-1.78,active
CYP17A1,0.698,inactive
TRAP1,-1.02,active
MXD3,0.41,inactive
OR6F1,-0.441,inactive
C1QB,-1.43,active
KRTAP12-1,-0.969,inactive
TSC22D3,1.13,active
OR8A1,-1.68,active
BCOR,2.17,active
CRYBA2,-1.63,active
UCN,-0.969,inactive
ICAM1,-1.48,active
COX6A1,1.31,active
LUC7L,-1.7,active
ZNF579,-1.92,active
MRTFB,-0.668,inactive
ANKRD13C-DT,-0.244,inactive
CXCL13,-0.631,inactive
THAP4,1.17,active
RPL28,0.263,inactive
NUP42,1.17,active
DUOX2,-1.9,active
OTOF,0.24,inactive
RPL6,-0.786,inactive
SH3BP1,-0.672,inactive
DNAJA2,0.529,inactive
LCE4A,0.89,inactive
CDHR1,-0.72,inactive
HAUS1,0.422,inactive
ZBTB39,-0.0725,inactive
CPO,-0.93,inactive
OR10G4,-1.83,active
RLBP1,1.02,active
COL1A1,2.35,active
ZNF746,-0.455,inactive
RABGGTA,-1.08,active
RAP1GAP2,-0.98,inactive
CSAD,-0.872,inactive
MUSTN1,-1.28,active
IFT70B,1.12,active
SLC30A2,0.834,inactive
LHX2,1.52,active
CYP2U1,-1.15,active
TMPRSS12,-0.545,inactive
JAM3,0.536,inactive
